Compound potency records, mixed from different reports. Data source: NIAID ChemDB in PubChem.

All rows: target-level tests; agent: Pneumocystis carinii; target: DHFR; read-out: IC50

Rows are shuffled and stem from different studies. ICn is the concentration giving n% inhibition.

COc1c(SC)cc(Cc2cnc(N)nc2N)cc1S(C)=O ; value: 18 µM
CCOC(=O)c1ccc(NC(=O)Nc2cc(Cl)ccc2Oc2ccccc2)cc1 ; value: >100 µM
CNc1ccc(C(=O)NCCOc2cc(Cc3cnc(N)nc3N)cc(OC)c2Br)cc1 ; value: 10 µM
COc1ccc(-c2nc3nc(N)nc(N)c3[nH]2)c(OC)c1 ; value: >14 µM
Nc1nc(N)c2cc(CN3c4ccccc4C=Cc4ccccc43)ccc2n1 ; value: 0.037 µM
CN(Cc1cnc2nc(N)nc(N)c2n1)c1ccc(C(=O)NC(CCC(=O)NC(CCC(=O)O)C(=O)O)C(=O)O)cc1 ; value: 0.0002 µM
CN(Cc1cnc2nc(N)nc(N)c2n1)c1c(Cl)cc(C(=O)N[C@@H](CCC(=O)O)C(=O)O)cc1Br ; value: 0.00021 µM
COc1cc(Cc2cnc(N)nc2N)cc(OCCCC(CCC(=O)O)C(=O)O)c1Br ; value: 0.043 µM
COc1cc(OC)c(-c2nc3nc(N)nc(N)c3[nH]2)c(OC)c1 ; value: >31.5 µM
Nc1nc(N)c2cc(NC3c4ccccc4CCc4ccccc43)ccc2n1 ; value: 0.51 µM
COc1cc(Cc2cnc(N)nc2N)cc(OC)c1NS(=O)c1ccc(NC(C)=O)cc1 ; value: 31 µM
CC(=O)Nc1ccc(C(=O)O)c(C(=O)c2ccccc2Cl)c1 ; value: >100 µM
COc1cc(CN2CCc3nc(N)nc(N)c3C2)c(Br)c(OC)c1OC ; value: 0.51 µM
COc1ccc(Cc2cnc(N)nc2N)cc1OCCNS(=O)(=O)c1ccc(N)cc1 ; value: 0.57 µM
CC1(C)N=C(N)N=C(N)N1c1cccc(OCc2cccc(N)c2)c1 ; value: 1.4 µM
COc1cc2c(c(OC)c1OC)CCN2c1cnc(N)nc1N ; value: 87 µM
Nc1nc(N)c2nc(CNc3ccc4cc(Cl)ccc4c3)cnc2n1 ; value: 44 µM
O=[N+]([O-])c1ccc(-c2cc(Cl)c3cc(S(=O)(=O)F)ccc3n2)cc1 ; value: 41 µM
Nc1nc(N)c2nc(CSc3ccccc3)cnc2n1 ; value: 9.5 µM
COc1cc(Cc2cnc(N)nc2N)cc(OCCC(=O)NCC(=O)OCc2ccccc2)c1Br ; value: 7.9 µM
COc1ccccc1NC1=C(Cl)C(=O)C(Nc2ccccc2OC)=C(Cl)C1=O ; value: >100 µM
CN(Cc1cnc2nc(N)nc(N)c2n1)c1ccc(C(=O)N[C@H](CCC(=O)O)C(=O)O)cc1I ; value: 0.000104 µM
O=C(O)c1c(Cl)c(Cl)c(Cl)c(Cl)c1C(=O)Nc1cccc(C(F)(F)F)c1 ; value: >100 µM
Nc1nc(N)c2nc(CSc3ccccc3)cnc2n1 ; value: 9.5 µM
COc1ccc(-c2nc3nc(N)nc(N)c3[nH]2)c2ccccc12 ; value: >13 µM
COc1cc(Cc2cc3[nH]c(N)nc(N)c3c3ccnc23)cc(OC)c1 ; value: 0.039 µM
COc1ccc(OC)c(-c2nc3nc(N)nc(N)c3[nH]2)c1 ; value: >37.4 µM
CN(Cc1cnc2nc(N)nc(N)c2n1)c1c(F)cc(C(=O)N[C@H](CCC(=O)O)C(=O)O)cc1F ; value: 0.00051 µM
O=C1C=CC(=Nc2cc(Cl)c(O)c(Cl)c2)C=C1Cl ; value: 95 µM
CN(Cc1cnc2nc(N)nc(N)c2n1)c1ccc(C(=O)N[C@@H](CCC(=O)O)C(=O)O)c2ccccc12 ; value: 0.00019 µM
Cc1nc2nc(N)nc(N)c2nc1CN(C)c1ccc2c(Cl)cc(Cl)cc2c1 ; value: >10 µM
Nc1nc(N)c2nc(CNc3ccc(C(=O)N[C@@H](CC(=O)O)C(=O)O)cc3)cnc2n1 ; value: 0.028 µM
Nc1nc(N)c2nc(CN3c4ccccc4CCc4ccccc43)cnc2n1 ; value: 1.4 µM
Cc1cccc(C)c1N1C(N)=NC(N)=NC1(C)C ; value: >20 µM
COc1cc(CCCN2CCc3nc(N)nc(N)c3C2)cc(OC)c1OC ; value: 9.3 µM

For reference, 2 entries again:

O=[N+]([O-])c1ccc(-c2cc(Cl)c3cc(S(=O)(=O)F)ccc3n2)cc1 ; value: 41 µM
COc1ccc(-c2nc3nc(N)nc(N)c3[nH]2)c(OC)c1 ; value: >14 µM